Measured values from several laboratories, pooled; numbers as filed in NIAID ChemDB.

All rows: tests on isolated targets; species: HIV-1; protein: Protease; read-out: IC50

Blank or dashed fields: not listed here. Neighbouring rows are from separate reports. ICn is the concentration giving n% inhibition.

SMILES	method	value
CC(C)c1nc(COC(=O)N[C@H](C(=O)N[C@@H](Cc2ccccc2)[C@H](O)CN2CCN(Cc3cccnc3)C[C@H]2C(=O)NC(C)(C)C)C(C)C)cs1	substrate cleavage	<0.0005 µM
CC(C)CN(C[C@@H](O)[C@H](Cc1cc(F)cc(F)c1)NC(=O)O[C@H]1CO[C@H]2OC[C@H](NC(C)C)[C@H]21)S(=O)(=O)c1ccc2nc(NC3CC3)sc2c1	substrate cleavage / fluorescence	0.0002 µM
CC(C)[C@H](NC(=O)COc1cccnc1)C(=O)N[C@@H](Cc1ccccc1)[C@H](O)C(=O)N1CSC[C@H]1C(=O)NC(C)(C)C	-	~0.05 µM
CC(C[C@@H](O)[C@H](O)C(C)(C)O)[C@@H]1CC[C@]2(C)C3=CCC4C(C)(C)C(O)CC[C@]4(C)C3CC[C@@]12C	substrate cleavage / fluorescence	>100 µM
CCCCCCCCCCCC(=O)O[C@@H]1C[C@]2(C)[C@H]3CC=C4[C@@H]5CC(C)(C)CC[C@]5(C(=O)OCc5ccccc5)CC[C@@]4(C)[C@]3(C)CC[C@H]2C(C)(C)[C@H]1O	FRET	>1200 µg/mL
CC(C)[C@H](NC(=O)[C@@H]1CCCN1C(=O)[C@H](O)[C@H](Cc1ccccc1)NC(=O)OC(C)(C)C)C(=O)NCC1CCCCC1	-	~1000 µM
CCCCCC(=O)O[C@H]1CC[C@]2(C)[C@H]3CC=C4[C@@H]5CC(C)(C)CC[C@]5(C(=O)O)CC[C@@]4(C)[C@]3(C)CC[C@H]2C1(C)C	FRET	>1200 µg/mL
CC(C)C[C@H](NC(=O)[C@@H](NC(=O)CCCCCCCCCCCCCCC(=O)N[C@@H](CC(N)=O)C(=O)N[C@@H](Cc1cccc2ccccc12)C(=O)O)C(C)O)C(=O)N[C@@H](Cc1ccccc1)C(N)=O	-	2.9 µM
CO[C@@H]([C@@H](CC(C)[C@@H]1CC[C@]2(C)C3=CCC4C(C)(C)C(OC(=O)CC(C)(C)CC(=O)O)CC[C@]4(C)C3CC[C@@]12C)OC(C)(C)C)C(C)(C)O	substrate cleavage / fluorescence	>100 µM
CCc1nc(COC(=O)N[C@H](C(=O)N[C@@H](Cc2ccccc2)[C@H](O)CN2CCN(Cc3ccc(OC)c(OC)c3)C[C@H]2C(=O)NC(C)(C)C)C(C)C)cs1	substrate cleavage	<0.0005 µM
CC(C[C@@H](O)[C@H](O)C(C)(C)O)[C@@H]1CC[C@]2(C)C3=CCC4C(C)(C)C(=O)C(O)=C[C@]4(C)C3CC[C@@]12C	substrate cleavage / fluorescence	>100 µM
CC[C@H](C)[C@H](NC(=O)[C@@H]1CCCN1C(=O)[C@@H](O)[C@H](Cc1ccccc1)NC(=O)[C@H](CO)NC(=O)CCc1ccccc1)C(=O)N[C@H](C(N)=O)C(C)C	-	<5 µM
CC(C)CN(C[C@@H](O)[C@H](Cc1ccccc1)NC(=O)CN(CC(N)=O)[C@H]1CCOC1)S(=O)(=O)c1ccc2c(c1)OCO2	substrate cleavage / FRET	0.0099 µM
CC(C)C[C@H](NC(=O)[C@H](CC(N)=O)NC(=O)CCCCCCCCCCCCCCC(=O)N[C@H](C(=O)N[C@@H](CC(C)C)C(=O)N[C@@H](Cc1ccccc1)C(N)=O)C(C)O)C(=O)O	-	12 µM
CC(C)c1nc(COC(=O)N[C@H](C(=O)N[C@@H](Cc2ccccc2)[C@H](O)CN2CCN(Cc3ccccc3)C[C@H]2C(=O)NC(C)(C)C)C(C)C)cs1	substrate cleavage	<0.0005 µM
CC(O)[C@H](NC(=O)CCCCCCCCCCCCCCC(=O)N[C@@H](CC(N)=O)C(=O)N[C@@H](Cc1ccccc1)C(=O)O)C(=O)N1CCC[C@H]1C(=O)N[C@@H](Cc1ccccc1)C(N)=O	-	>5.5 µM
CC(C)(C)NC(=O)[C@H]1N(C(=O)[C@@H](O)[C@H](Cc2ccccc2)NC(=O)[C@H](CC(N)=O)NC(=O)COc2cccc3ccccc23)CSC1(C)C	-	<0.05 µM
CC(C)c1nc(COC(=O)N[C@H](C(=O)N[C@@H](Cc2ccccc2)[C@H](O)CN2CCN(Cc3ccncc3)C[C@H]2C(=O)NC(C)(C)C)C(C)C)cs1	substrate cleavage	<0.0005 µM
CC(C)C[C@H](NC(=O)[C@@H](NC(=O)CCCCCCCCCCCCCCC(=O)N[C@@H](CCC(N)=O)C(=O)N[C@@H](Cc1ccccc1)C(=O)O)C(C)O)C(=O)N[C@@H](Cc1ccccc1)C(N)=O	-	>5.5 µM
CCCC(=O)O[C@H]1CC[C@]2(C)[C@H]3CC=C4[C@@H]5CC(C)(C)CC[C@]5(C(=O)OCc5ccccc5)CC[C@@]4(C)[C@]3(C)CC[C@H]2C1(C)C	FRET	>1200 µg/mL
COc1ccc(CN2CCN(C[C@@H](O)[C@H](Cc3ccccc3)NC(=O)[C@@H](NC(=O)OCc3cnc(C)s3)C(C)C)[C@H](C(=O)NC(C)(C)C)C2)cc1OC	substrate cleavage	<1 µM
CC(C[C@@H](O)[C@H](O)C(C)(C)O)[C@@H]1CC[C@]2(C)C3=CCC4C(C)(C)C(=O)CC[C@]4(C)C3CC[C@@]12C	substrate cleavage / fluorescence	>100 µM
CC(=O)O[C@@H]1C[C@]2(C)[C@H]3CC=C4[C@@H]5CC(C)(C)CC[C@]5(C(=O)OCc5ccccc5)CC[C@@]4(C)[C@]3(C)CC[C@H]2C(C)(C)[C@H]1O	FRET	>1200 µg/mL
CO[C@@H]([C@@H](CC(C)[C@@H]1CC[C@]2(C)C3=CCC4C(C)(C)C(OC(=O)CC(C)(C)C(=O)O)CC[C@]4(C)C3CC[C@@]12C)OC(C)(C)C)C(C)(C)O	substrate cleavage / fluorescence	62.8 µM
CC1(C)CC[C@]2(C(=O)OCc3ccccc3)CC[C@]3(C)C(=CC[C@@H]4[C@@]5(C)C[C@@H](OC(=O)c6ccccc6)[C@H](OC(=O)c6ccccc6)C(C)(C)[C@@H]5CC[C@]43C)[C@@H]2C1	FRET	>1200 µg/mL
CC1CCC2C(C)(C)C(O)CCC2(C)C12Cc1c(cc3c(c1O)CN(C(CCC(=O)O)C(=O)O)C3=O)O2	substrate cleavage / HPLC	288 µM
CC(C)(C)NC(=O)[C@@H]1C[C@@H](OCc2ccccc2)CN1C(=O)[C@@H](O)[C@H](Cc1ccccc1)NC(=O)[C@H](CC(N)=O)NC(=O)OCc1ccccc1	-	<5 µM
CC1CCC2C(C)(C)C(O)CCC2(C)C12Cc1c(cc3c(c1O)CN(CCO)C3=O)O2	substrate cleavage / HPLC	115 µM
CC(C[C@@H](OC(=O)CC(C)(C)C(=O)O)[C@H](OC(=O)CC(C)(C)C(=O)O)C(C)(C)O)[C@@H]1CC[C@]2(C)C3=CCC4C(C)(C)C(=O)CC[C@]4(C)C3CC[C@@]12C	substrate cleavage / fluorescence	>100 µM
CC1CCC2C(C)(C)C(O)CCC2(C)C12Cc1c(cc(CO)c(C=O)c1O)O2	substrate cleavage / HPLC	115 µM
CCCCCC(=O)O[C@@H]1C[C@]2(C)[C@H]3CC=C4[C@@H]5CC(C)(C)CC[C@]5(C(=O)OCc5ccccc5)CC[C@@]4(C)[C@]3(C)CC[C@H]2C(C)(C)[C@H]1O	FRET	>1200 µg/mL

A second listing of 2 rows from above:

SMILES | method | value
CC(O)[C@H](NC(=O)CCCCCCCCCCCCCCC(=O)N[C@@H](CC(N)=O)C(=O)N[C@@H](Cc1ccccc1)C(=O)O)C(=O)N1CCC[C@H]1C(=O)N[C@@H](Cc1ccccc1)C(N)=O | - | >5.5 µM
CC(=O)O[C@@H]1C[C@]2(C)[C@H]3CC=C4[C@@H]5CC(C)(C)CC[C@]5(C(=O)OCc5ccccc5)CC[C@@]4(C)[C@]3(C)CC[C@H]2C(C)(C)[C@H]1O | FRET | >1200 µg/mL